Results of unrelated studies side by side (data: NIAID ChemDB).

Shared fields: tests in culture; species: Hepatitis B virus; read-out: EC50

An empty or dashed field is not shown. ECn: concentration that inhibits the pathogen or its effect by n%. Conditions beyond the fields shown may differ between rows. Two numbers with a dash give a range or band.

compound | strain or isolate | cell line | read by | result
C[C@H]1Cn2c(c(C(=O)NCc3ccccc3-n3ccc(F)n3)n(-c3ccc(OC4CC4)cc3)c2=O)CN1C(=O)c1ccc(Br)c(Cl)c1 |  | HepG2.117 | PCR | <0.1 µM
COCCCOc1cc2c(cc1Cl)-c1c(cc(C(=O)O)c(=O)n1C1CC1)[C@@H](C)S2(=O)=O |  | Primary human hepatocytes | antigen / visual reading / absorbance | 0.05–0.1 µM
Cc1c(C(=O)C(=O)NC(C)(C)c2ccccn2)c(C)n(C)c1C(=O)Nc1ccc(F)c(C#N)c1 |  | HepG2.2.15 | PCR | 0.001–0.0099 µM
C[C@H](NC(=O)C(=O)N1CCC2(CC1)COc1c(cn(C)c1C(=O)Nc1ccc(F)c(Cl)c1)S(=O)(=O)N2)C(F)(F)F | Genotype D | HepAD38 | PCR | <0.5 µM
Cc1ccc(CNC(=O)c2ccc3ncnc(Nc4ccc(N5CCOCC5)cc4)c3c2)cc1 |  | HUH 9B | replicon | 1–5 µM
C[C@@H](NC(=O)C(=O)N1CC[C@]2(COc3c(c(Cl)n(C)c3C(=O)Nc3ccc(F)c(C(F)F)c3)S(=O)(=O)N2)C1)C(F)(F)F | Genotype D | HepAD38 | PCR | <0.5 µM
CNC(=O)c1ccc(-n2c(=O)c3c(n4ncc(Cc5ccccc5)c24)CN(C(=O)c2ccc(Br)c(C(F)F)c2)CC3)cc1 |  | HepG2.117 | luminescence | ≤0.05 µM
O=S1(=O)CCN(Cc2ccc(-c3ccc4ncnc(Nc5ccc(N6CCOCC6)cc5)c4c3)o2)CC1 |  | HUH 9B | replicon | 1–5 µM
CN1[C@H](C(=O)Nc2ccc(F)c(Cl)c2)C[C@H](c2ncc(-c3cn(C)cn3)s2)NS1(=O)=O | Genotype D | PHH | ELISA | 0.16 µM
CC(C)NS(=O)(=O)N1CCC(NS(=O)(=O)c2cn(C)c(C(=O)Nc3ccc(F)c(F)c3)c2F)CC1 |  | HepAD38 cells | PCR | <0.1 µM
C=C[C@H](NC(=O)C(=O)c1c(C)c(C(=O)Nc2ccc(F)c(C#N)c2)n(C)c1C)C(F)(F)F |  | HepG2.2.15 | PCR | <0.001 µM
C[C@H]1Cc2c(n3ncc(CC4CC4)c3n(-c3ccc(C(=O)N(C)CO)cc3)c2=O)CN1C(=O)c1ccc(Br)c(C(F)(F)F)c1 |  | HepG2.117 | luminescence | >5 µM
C[C@@H](NC(=O)C(=O)N1C[C@H]2COc3c(cn(C)c3C(=O)Nc3ccc(F)c(C(F)(F)F)c3)S(=O)(=O)N[C@H]2C1)C(F)(F)F |  | HepAD38 | PCR | <0.5 µM
CC(C)Oc1cc2c(cc1Cl)-c1c(cc(C(=O)O)c(=O)n1C1CC1)C(C)S2(=O)=O |  | Primary human hepatocytes | antigen / visual reading / absorbance | 0.1–0.5 µM
C[C@@H]1Cn2c(c(C(=O)N[C@H](C)c3ccccc3)n(-c3ccc(OC4CC4)cc3)c2=O)CN1C(=O)c1ccc(Br)c(Cl)c1 |  | HepG2.117 | PCR | 0.5–5 µM
Cc1cc(NC(=O)c2c3c(cn2C)S(=O)(=O)N[C@H]2CN(C(=O)C(=O)NC4(C)COC4)C[C@H]2CS3)ccc1F |  | HepAD38 | PCR | <0.5 µM
CCOCCOc1cc2c(cc1Cl)-c1c(cc(C(=O)O)c(=O)n1C1CC1)CS2(=O)=O |  | Primary human hepatocytes | antigen / visual reading / absorbance | 0.1–0.5 µM
Cc1cc(NC(=O)c2c3c(cn2C)S(=O)(=O)NC2CCN(C(=O)C(=O)NC(C)(C)C(F)(F)F)CC2CO3)ccc1F |  | HepAD38 | PCR | <0.5 µM
CCOC(=O)C1=C(CN2CC(F)(F)[C@@H]3[C@H]2CON3C[C@@H](OC)C(C)(C)C(=O)O)NC(c2nccs2)=N[C@@H]1c1ccc(F)c(F)c1C |  | HepG2.2.15 | PCR | 0.001 µM
O=C(NCc1cccc2[nH]cnc12)c1c2n(c(=O)n1-c1ccc(OCC(F)(F)F)cc1)CCN(C(=O)c1ccc(Br)c(Cl)c1)C2 |  | HepG2.117 | PCR | 0.5–5 µM
CCNC(=O)C(=O)N1CCC2(NS(=O)(=O)c3cn(C)c(C(=O)Nc4cc(F)c(F)c(F)c4)c3F)CC2C1 |  | HepAD38 cells | PCR | <0.1 µM
COCCCOc1cc2c(cc1Cl)-c1c(cc(C(=O)O)c(=O)n1C1CC1)C(C)S2 |  | Primary human hepatocytes | antigen / visual reading / absorbance | 0.1–0.5 µM
CCOC(=O)C1=C(CN2CC(F)(F)[C@H]3[C@@H]2CON3C[C@@H](O)C(C)(C)C(=O)O)NC(c2nc(C)cs2)=N[C@H]1c1cccc(F)c1C |  | HepG2.2.15 | PCR | 0.003 µM
O=C(Nc1ccc(-c2nc3cccc(F)c3o2)cc1)C1COCCO1 |  | Primary human hepatocytes (PHH) | antigen / luminescence | 1.23 µM
C[C@H]1Cc2c(n3ncc(Cc4ccccc4)c3n(-c3ccc(-c4ncnn4C)cc3)c2=O)CN1C(=O)c1ccc(Br)c(C(F)(F)F)c1 |  | HepG2.117 | luminescence | 0.05–0.5 µM
COc1ccc(-n2c(C(=O)NCc3ccc4oc(C)nc4c3)c3n(c2=O)CCN(C(=O)c2ccc(Cl)c(Cl)c2)C3)cc1 |  | HepG2.117 | PCR | 0.5–5 µM
COc1ccc(CNC(=O)c2ccc3ncnc(Nc4ccc(N5CCOCC5)cc4)c3c2)cc1 |  | HUH 9B | replicon | 1–5 µM
COCCCOc1ccc2c(c1Br)S(=O)(=O)C(C)c1cc(C(=O)O)c(=O)n(C3CC3)c1-2 |  | Primary human hepatocytes | antigen / visual reading / absorbance | >0.5 µM
C[C@@H](NC(=O)C(=O)N1CCC2(COc3c(cn(C)c3C(=O)Nc3ccc(F)c(F)c3)S(=O)(=O)N2)C1)C(F)(F)F | Genotype D | HepAD38 | PCR | <0.5 µM
CCOC(=O)C1=C(CN2CC(F)(F)[C@@H]3[C@H]2CON3C[C@@H](OC)C(C)(C)C(=O)O)NC(c2nccs2)=N[C@H]1c1ccc(F)cc1Cl |  | HepG2.2.15 | PCR | 0.025 µM
c1nc(Nc2ccc(N3CCOCC3)cc2)c2cc(-c3ccc(C4OCCO4)o3)ccc2n1 |  | HUH 9B | replicon | 1–5 µM
CNC(=O)C(=O)N1CC[C@@H](NS(=O)(=O)c2cn(C3CC3)c(C(=O)Nc3ccc(F)c(F)c3)c2F)C1 |  | HepAD38 cells | PCR | <0.1 µM
Nc1nc(=O)c2ncn([C@@H]3O[C@H](CO)[C@@H](O)[C@H]3O)c2c(=O)[nH]1 |  | 2.2.15 |  | >10 µM
Brc1ccc2ncnc(Nc3ccc(N4CCOCC4)cc3)c2c1 |  | HUH 9B | replicon | 1–5 µM
COCCC(C)Oc1cc2c(cc1Cl)-c1c(cc(C(=O)O)c(=O)n1C1CC1)C(C)S2(=O)=O |  | Primary human hepatocytes | antigen / visual reading / absorbance | 0.1–0.5 µM
C[C@H]1Cc2c(n3ncc(CC4CC4)c3n(-c3ccc(-c4n[nH]nc4N)cc3)c2=O)CN1C(=O)c1ccc(Br)c(C(F)(F)F)c1 |  | HepG2.117 | luminescence | 0.05–0.5 µM
C[C@H](NC(=O)C(=O)N1CC2(COc3c(cn(C)c3C(=O)Nc3ccc(F)c(C(F)F)c3)S(=O)(=O)N2)C1)C(F)(F)F | Genotype D | HepAD38 | PCR | <0.5 µM
Cc1c(C(=O)C(=O)NC(C)(C)c2cnn(C3CC3)c2)c(C)n(C)c1C(=O)Nc1ccc(F)c(C#N)c1 |  | HepG2.2.15 | PCR | 0.001–0.0099 µM
c1cc(-c2ccc3ncnc(Nc4ccc(N5CCOCC5)cc4)c3c2)cc(-n2cccn2)c1 |  | HUH 9B | replicon | <1 µM
CCOC(=O)C1=C(CN2CC(F)(F)[C@@H]3[C@H]2CON3C[C@@H](O)C(CC)(CC)C(=O)O)NC(c2nccs2)=N[C@H]1c1cccc(F)c1C |  | HepG2.2.15 | PCR | 0.013 µM
Cn1cncc1-c1ccc(-n2c(=O)c3c(n4ncc(Cc5ccccc5)c24)CN(C(=O)c2ccc(Br)c(C(F)(F)F)c2)CC3)cc1 |  | HepG2.117 | luminescence | ≤0.05 µM
COc1ccc(-n2c(C(=O)N[C@H](c3ccccc3)C(F)F)c3n(c2=O)CCN(C(=O)c2ccc(Br)c(Cl)c2)C3)cc1 |  | HepG2.117 | PCR | 0.1–0.5 µM
COCCCOc1cc2c(cc1NC(=O)OC(C)(C)C)-c1c(cc(C(=O)O)c(=O)n1C1CC1)C(C)S2(=O)=O |  | Primary human hepatocytes | antigen / visual reading / absorbance | >0.5 µM
COc1ccc(CNC(=O)c2c3n(c(=O)n2-c2ccc(OC4CC4)cc2)CCN(C(=O)c2ccc(Br)c(Cl)c2)C3)c(F)c1 |  | HepG2.117 | PCR | 0.1–0.5 µM
Cn1cc(S(=O)(=O)NC2CCN(C(=O)C(=O)NC3(C)CC3)CC2(F)F)c(Cl)c1C(=O)Nc1cc(F)c(F)c(F)c1 |  | HepAD38 cells | PCR | <0.1 µM
Cc1nc(-c2ccc(-n3c(=O)c4c(n5ncc(CC(C)C)c35)CN(C(=O)c3ccc(Br)c(Cl)c3)[C@H](C)C4)cc2)n[nH]1 |  | HepG2.117 | luminescence | ≤0.05 µM
CN(C)C(=O)c1ccc2ncnc(Nc3ccc(N4CCOCC4)cc3)c2c1 |  | HUH 9B | replicon | 1–5 µM
CCOC(=O)C1=C(CN2CC(F)(F)[C@@H]3[C@H]2CON3C[C@@H](F)C(C)(C)C(=O)O)NC(c2nccs2)=N[C@H]1c1ccc(F)c(F)c1C |  | HepG2.2.15 | PCR | 0.003 µM
CNC(=O)c1ccc(-n2c(=O)c3c(n4ncc(CC5CC5)c24)CN(C(=O)c2ccc(Br)c(C(F)(F)F)c2)[C@H](C)C3)cc1 |  | HepG2.117 | luminescence | ≤0.05 µM
Cc1cc(NC(=O)c2c3c(cn2C)S(=O)(=O)N[C@H]2CN(C(=O)C(=O)N[C@H](C)C(F)(F)F)C[C@H]2CO3)ccc1F | Genotype D | HepG2 | PCR | 0.00094 µM
C#C[C@H](CCO)NC(=O)C(=O)c1c(C)c(C(=O)Nc2ccc(F)c(C#N)c2)n(C)c1C |  | HepG2.2.15 | PCR | 0.001–0.0099 µM
COCCCOc1cc2c(cc1Cl)-c1c(cc(C(=O)O)c(=O)n1C1CC1)C(C(C)(C)C)S2(=O)=O |  | Primary human hepatocytes | antigen / visual reading / absorbance | >0.5 µM
CC(C)Cc1cnn2c3c(c(=O)n(-c4ccc(-c5n[nH]c(=O)n5C)cc4)c12)C[C@@H](C)N(C(=O)c1ccc(Br)c(C(F)(F)F)c1)C3 |  | HepG2.117 | luminescence | ≤0.05 µM
CCOC(=O)C1=C(CN2CC(F)(F)[C@@H]3[C@H]2CON3C[C@H](O)C(C)(C)C(=O)O)NC(c2nccs2)=N[C@H]1c1ccc(F)c(F)c1C |  | HepG2.2.15 | PCR | 0.0115 µM

5 of the rows above, restated:

compound	strain or isolate	cell line	read by	result
CCNC(=O)C(=O)N1CCC2(NS(=O)(=O)c3cn(C)c(C(=O)Nc4cc(F)c(F)c(F)c4)c3F)CC2C1		HepAD38 cells	PCR	<0.1 µM
Cc1cc(NC(=O)c2c3c(cn2C)S(=O)(=O)NC2CCN(C(=O)C(=O)NC(C)(C)C(F)(F)F)CC2CO3)ccc1F		HepAD38	PCR	<0.5 µM
CNC(=O)C(=O)N1CC[C@@H](NS(=O)(=O)c2cn(C3CC3)c(C(=O)Nc3ccc(F)c(F)c3)c2F)C1		HepAD38 cells	PCR	<0.1 µM
C[C@H](NC(=O)C(=O)N1CC2(COc3c(cn(C)c3C(=O)Nc3ccc(F)c(C(F)F)c3)S(=O)(=O)N2)C1)C(F)(F)F	Genotype D	HepAD38	PCR	<0.5 µM
C=C[C@H](NC(=O)C(=O)c1c(C)c(C(=O)Nc2ccc(F)c(C#N)c2)n(C)c1C)C(F)(F)F		HepG2.2.15	PCR	<0.001 µM